PubChem BioAssay AID1035470 (Broad Institute, 2014)
The entries are a selection whose mix differs from that of the whole data set. Entries with a potency or affinity are not part of this list. Inconclusive results are not listed. Calls of active or inactive are those of the source.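 How the source made its calls: active means compound lowering the normal-ribosome reporter at least twice as much as the humanized-ribosome reporter, growth loss under a set limit; inconclusive means no clear call, values can overlap the other calls; inactive means the rest.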

Assay: growth inhibition of wild-type GFP E. coli versus G2058-humanized strain, dose response, G2058 mutant RFP vs wild-type GFP, cherry-pick, two tests (AID 1035470)
Details: E. coli WT-GFP vs G2058-humanized RFP, fluorescence, 24 h; at 50 µM (top of the series)

Row | Compound | activity change, negative = inhibition
1 | O=[N+]([O-])c1cc([N+](=O)[O-])c(Nc2nnnn2CCO)c([N+](=O)[O-])c1 | inactive: -2.05
